A mixed list of measured activities; the numbers were collected in NIAID ChemDB.

All rows: target-level tests; agent: Hepatitis C virus; target: NS5B polymerase; measure: IC50

ICn is the concentration giving n% inhibition. An empty or dashed field is not shown. Neighbouring rows are from separate reports. a–b is a range or a potency band.

structure | strain or isolate | method | result
O=C(N[C@@H](Cc1c[nH]c2ccccc12)C(=O)O)c1ccc2nc(-c3ccccn3)c(-c3ccccn3)nc2c1 | - | - | >50 µM
COc1ccc(NC(=O)c2cc(C(=O)N[C@H]3CCCC[C@@H]3OCc3ccccc3)n(CC(=O)NC3CCCC[C@@H]3OCc3ccccc3)n2)cc1 | - | - | 0.05–0.1 µM
CCC(C)Oc1ccccc1C1C2=C(CC(c3ccc(OC)c(OC)c3)CC2=O)Nc2ccccc2N1C(C)=O | - | - | >42.7 µM
O=C(NC1(C(=O)Nc2cc(C(=O)O)[nH]n2)CCCC1)c1ccc2c(c1)nc(-c1ccoc1)n2C1CCCCC1 | - | - | 0.5–5 µM
Cc1ccc(Nn2c(=O)c(C3=NS(=O)(=O)c4ccccc4N3)c(O)c3cccnc32)cc1 | Genotype 1A | - | >5 µM
CC1=C(C(=O)OCc2ccc3ncsc3c2)CNC(=S)N1 | - | - | 0.5 µM
CC1(C)CC(=O)C2=C(C1)Nc1ccc(C(=O)c3ccccc3)cc1NC2c1ccc(Cl)cc1 | - | - | >42.7 µM
Cc1cccc(C(=O)N/C(=C\c2ccc(-c3ccccc3Cl)s2)C(=O)O)c1 | - | - | >30 µM
O=C(O)c1ccc2nc(-c3ccccn3)c(-c3ccccn3)nc2c1 | - | - | >50 µM
O=C(O)CCc1cccc(NC(=O)C2(NC(=O)c3ccc4c(c3)nc(-c3ccoc3)n4C3CCCCC3)CCCC2)c1 | - | - | 0.5–5 µM
CCNC(=O)c1cc(C(=O)N[C@H]2CCCC[C@@H]2OCc2ccccc2)n(CC(=O)Nc2ccc3c(c2)OCO3)n1 | - | - | ≥1 µM
O=C(O)c1nc(-c2cccs2)nc2nc[nH]c12 | - | - | >50 µM
COc1cc(C(=O)N2[C@@H](c3nccs3)[C@@H](c3cnccn3)C[C@@]2(Cc2nccs2)C(=O)O)ccc1C(C)(C)C | genotype 1b | - | <0.1 µM
O=C(Cn1nccc1C(=O)N[C@H]1CCCC[C@@H]1OCc1ccccc1)Nc1ccccc1OCc1ccccc1 | - | - | 0.1–1 µM
CC1CCC(C(=O)C(=O)N(c2cc(-c3ccccc3)sc2C(=O)O)C(C)C)CC1 | - | - | 0.29 µM
O=C(Cn1nc(C(=O)O)cc1C(=O)Nc1ccccc1OCc1ccsc1)N[C@H]1CCCC[C@@H]1OCc1ccccc1 | - | - | ≤0.05 µM
Cc1cc2c(cc1C(=O)N[C@H](C)C(=O)Nc1ccc(/C=C/C(=O)O)cc1)nc(-c1ccoc1)n2C1CCCCC1 | - | - | 0.5–5 µM
O=C(O)c1ccc2c(c1)nc(-c1ccc(OCc3cc(C(=O)N4CCC(O)CC4)ccc3Cl)cc1F)n2C1CCCCC1 | - | - | <10 µM
Nc1ccc(C(=O)N/C(=C\c2ccc(-c3ccccc3)o2)C(=O)O)cc1 | - | - | >30 µM
Cc1ccc2c(c1)NC(c1ccc(C(C)C)cc1)C1=C(CC(C)(C)CC1=O)N2 | - | - | 30.9 µM
O=c1[nH]c(-c2cccs2)nc(-c2nn[nH]n2)c1O | - | - | >50 µM
CCCCOC(=O)c1ccc(CC)nc1Nc1ccc(N2CCOCC2)cc1 | - | - | 3 µg/mL
CCC(=O)N1c2ccccc2NC2=C(C(=O)CC(C)(C)C2)C1c1cc(Cl)cc(Cl)c1OC | - | - | >42.6 µM
CCCCc1ccc(C(=O)O)c(Nc2ccc(N3CCNCC3)cc2)n1 | - | - | 3 µg/mL
Cc1ccc(OCc2ccccc2)c(NC(=O)c2cc(C(=O)O)nn2CS(=O)(=O)N[C@H]2CCCC[C@@H]2OCc2ccccc2)c1 | - | - | 0.1–1 µM
CC(C)=Cc1nc2cc(C(=O)O)ccc2n1C1CCCCC1 | - | - | 10 µM
C[C@@H](NC(=O)c1ccc2c(c1)nc(-c1ccoc1)n2C1CCCCC1)C(=O)Nc1ccc(/C=C/C(=O)O)cc1 | - | - | <0.5 µM
COC(=O)[C@H](Cc1c[nH]c2ccccc12)NC(=O)c1ccc2nc(-c3ccccn3)c(-c3ccccn3)nc2c1 | - | - | >50 µM
CC1=C(C(=O)OCCc2cccc(Cl)c2)C(COC(=O)CCN(C)C)NC(=S)N1 | - | - | 0.7 µM
COc1cc(C(=O)N2[C@@H](c3ncc(C)s3)[C@@H](c3cnccn3)C[C@@]2(Cc2ccsn2)C(=O)O)ccc1C(C)(C)C | Genotype 1A | - | <0.15 µM
O=C(O)c1nc(-c2cccs2)ncc1O | - | - | >50 µM
O=C(O)c1ccc2nc(-c3ccccc3)c(-c3ccccc3)nc2c1 | - | - | <10 µM
C[C@@H](NC(=O)c1cc(C(=O)Nc2ccccc2OCc2ccccc2)n(CC(=O)N[C@H]2CCCC[C@@H]2OCc2ccccc2)n1)c1cccc2ccccc12 | - | - | 0.15 µM
COc1cc(C(=O)N2[C@@H](c3ncc(C)s3)[C@@H](c3cnccn3)C[C@@]2(Cn2cccn2)C(=O)O)ccc1C(C)(C)C | genotype 1b | - | <0.1 µM
COC(=O)[C@H](Cc1c[nH]c2ccc(O)cc12)NC(=O)c1ccc2nc(-c3ccc(F)cc3)c(-c3ccc(F)cc3)nc2c1 | - | - | <10 µM
O=C(O)/C(=C/c1ccc(-c2ccccc2)o1)NC(=O)c1cc(O)ccc1O | - | - | <10 µM
CCC(=O)N1c2ccccc2NC2=C(C(=O)CC(c3ccccc3OCc3ccccc3)C2)C1c1ccccc1 | - | - | 30.8 µM
COc1cc(C(=O)N2[C@@H](c3nccs3)[C@@H](c3cnccn3)C[C@@]2(Cc2ccsn2)C(=O)O)ccc1C(C)(C)C | genotype 1b | - | <0.1 µM
O=C(Cn1nc(C(=O)Nc2nn[nH]n2)cc1C(=O)N[C@H]1CCCC[C@@H]1OCc1ccccc1)N[C@H]1CCCC[C@@H]1OCc1ccccc1 | - | - | 0.05–0.1 µM
O=C(O)c1cnc(N(C(=O)c2ccc(Oc3ccc(Cl)cc3)cc2)C2CCCCC2)s1 | - | - | 4.2 µM
CC(NC(=O)c1ccc2c(c1)nc(-c1ccoc1)n2C1CCCCC1)C(=O)Nc1cccc(/C=C/C(=O)O)c1 | - | - | 0.5–5 µM
COc1cc(Cl)cc(COC(=O)C2=C(C)NC(=S)NC2)c1 | - | - | 0.4 µM
COC(=O)c1nc(-c2cccs2)[nH]c(=O)c1O | - | - | >50 µM
CC(=O)N1c2ccccc2NC2=C(C(=O)CC(c3ccccc3OCc3ccccc3)C2)C1c1ccccc1 | - | - | >42.7 µM
O=C(O)/C(=C/c1ccc(-c2ccccc2Cl)s1)NC(=O)c1ccccc1 | - | - | <10 µM
CCCCOC(=O)c1ccc(CCCC)nc1N(C)c1ccc(N2CCOCC2)cc1 | - | - | 3 µg/mL
CC1(C)CC(=O)C2=C(C1)Nc1cccc(Br)c1NC2c1ccc(Cl)cc1Cl | - | - | 25.6 µM
CCSc1nc(Nc2ccc(N(CC)CC)cc2)cc(N2CCN(C(=O)c3ccncc3)CC2)n1 | - | - | 3 µg/mL
Cc1ccc(C(=O)N/C(=C\c2ccc(-c3ccccc3)o2)C(=O)O)cc1 | - | - | >30 µM
O=C(O)c1cc(Br)ccc1NS(=O)(=O)c1cc(Cl)c(Cl)cc1Cl | - | nucleotide incorporation | 9 µM
O=C(NC1(C(=O)Nc2ccc3c(C(F)(F)F)cc(=O)oc3c2)CCCC1)c1ccc2c(c1)nc(-c1ccoc1)n2C1CCCCC1 | - | - | 5–25 µM
O=C(O)c1ccc(Cl)cc1NS(=O)(=O)c1cc(Cl)c(Cl)cc1Cl | - | nucleotide incorporation | 11 µM
CC1(C)CC(=O)C2=C(C1)Nc1ccc(C(=O)c3ccccc3)cc1NC2c1ccc(F)cc1 | - | - | >42.7 µM
CC(NC(=O)c1ccc2c(c1)nc(-c1ccoc1)n2C1CCCCC1)C(=O)Nc1ccc(/C=C/C(=O)O)cc1 | - | - | <0.5 µM
CCCCSc1nc(Nc2ccc(N(CC)CC)cc2)cc(N2CCN(C(=O)c3ccncc3)CC2)n1 | - | - | 3 µg/mL
COc1cc(C(=O)N2[C@@H](c3nccs3)[C@@H](c3cnccn3)C[C@@]2(Cc2cscn2)C(=O)O)ccc1C(C)(C)C | genotype 1b | - | <0.1 µM
CCSc1nc(Nc2ccc(N(CC)CC)cc2)cc(N2CCN(C(=O)c3ncc(C)cn3)CC2)n1 | - | - | 3 µg/mL
CC1=C(C(=O)OCCCc2ccsc2F)C(CO)NC(=S)N1 | - | - | 6.3 µM
COC(=O)c1ccc2nc(-c3ccc(F)cc3)c(-c3ccc(F)cc3)nc2c1 | - | - | >50 µM
CCSc1nc(N2CCN(C(=O)c3ccccc3)CC2)cc(N(C)c2ccc(N(C)Cc3ccccc3)cc2)n1 | - | - | 3 µg/mL

8 of the rows above, restated:

structure,strain or isolate,method,result
O=C(Cn1nc(C(=O)Nc2nn[nH]n2)cc1C(=O)N[C@H]1CCCC[C@@H]1OCc1ccccc1)N[C@H]1CCCC[C@@H]1OCc1ccccc1,-,-,0.05–0.1 µM
CC(NC(=O)c1ccc2c(c1)nc(-c1ccoc1)n2C1CCCCC1)C(=O)Nc1ccc(/C=C/C(=O)O)cc1,-,-,<0.5 µM
COC(=O)[C@H](Cc1c[nH]c2ccc(O)cc12)NC(=O)c1ccc2nc(-c3ccc(F)cc3)c(-c3ccc(F)cc3)nc2c1,-,-,<10 µM
COC(=O)[C@H](Cc1c[nH]c2ccccc12)NC(=O)c1ccc2nc(-c3ccccn3)c(-c3ccccn3)nc2c1,-,-,>50 µM
Cc1ccc(C(=O)N/C(=C\c2ccc(-c3ccccc3)o2)C(=O)O)cc1,-,-,>30 µM
CCC(=O)N1c2ccccc2NC2=C(C(=O)CC(C)(C)C2)C1c1cc(Cl)cc(Cl)c1OC,-,-,>42.6 µM
O=C(O)/C(=C/c1ccc(-c2ccccc2)o1)NC(=O)c1cc(O)ccc1O,-,-,<10 µM
O=C(Cn1nccc1C(=O)N[C@H]1CCCC[C@@H]1OCc1ccccc1)Nc1ccccc1OCc1ccccc1,-,-,0.1–1 µM